These results are taken from patent US8609087B2, “Compounds and methods for identifying compounds which inhibit a new class of aspartyl proteases” (priority 1999, dated 2013).

For this assay, the target named is TcpJ type 4 prepilin peptidase (TFPP) (Vibrio cholerae serotype O1, UniProt A5F385, P151Q/Q149P/S169T). Description: biochemical. The assay is classed as biochemical.

As a reminder, the IC50 is the concentration at which inhibition is half-maximal.

Turning to `O=C([O-])Cc1ccccc1Nc1c(Cl)cccc1Cl.[Na+]` [Voltaren], the 50% inhibitory concentration (IC50) is roughly 110 µM and the “IC50 range (in words)” value was “micromolar range”.
